Compound potency records, mixed from different reports. Data source: NIAID ChemDB in PubChem.

All rows: growth or infection tests; species: HIV-1; endpoint: fold resistance

Neighbouring rows are from separate reports. Blank or dashed fields: not listed here. Fold resistance: result on the changed form divided by that on wild type.

compound | mutations | cell line | read by | strain or isolate | result
O=S(=O)(c1ccccc1)c1ccccc1 | RT-Y181C | CEM + CEM-SS | cytopathic effect / XTT | IIIB | 31
Cc1ccnc2c1NC(=O)c1cccnc1N2C1CC1 | RT-P236L | CEM + CEM-SS | cytopathic effect / XTT | HEPT-resistant (RT P236L) | 2
CC(C)=CCOc1cc(NC(=S)c2ccoc2C)ccc1Cl | RT-K103N | CEM | cytopathic effect | Y-1 (RT-K103N) | 20
Cc1ccnc2c1NC(=O)c1cccnc1N2C1CC1 | RT-Y181C | CEM + CEM-SS | XTT | Nevirapine-resistant (RT Y181C) | >3800
C/C=C/CSc1cc(NC(=S)c2ccsc2C)ccc1Cl | RT-Y181C | CEM + CEM-SS | cytopathic effect / XTT | E BPTU-resistant (RT Y181C) | >10
CCc1c(C(=O)c2cc(C)cc(C)c2)n(CC2CC=CC2)c(=O)[nH]c1=O | RT-V179D | CEM + CEM-SS | cytopathic effect / XTT | NL4-3 | 0.5
CCc1c(Sc2ccccn2)n(COCc2ccccc2)c(=O)[nH]c1=O | RT-K103N Y181C | CEM + CEM-SS | cytopathic effect / XTT | IIIB | >453
O=c1[nH]cnc2c1ncn2[C@H]1CC[C@@H](CO)O1 | RT-K65R F116Y Q151M | - | - | RT-65R 116Y 151M | 24
O=c1[nH]cnc2c1ncn2[C@H]1CC[C@@H](CO)O1 | RT-T69D | HELA-CD4+ | plaque count | JF4A (RT-T69D) | 1.13
CC(C)CN(C[C@@H](O)[C@H](Cc1ccccc1)NC(=O)[C@H](CC(N)=O)NC(=O)c1ccc2ccccc2n1)C(=O)NC(C)(C)C | PR-M46I V82T | MT-4 | p24 | NL4-3 | 2
CCOP(=O)(COc1ccc(C[C@H](NC(=O)O[C@H]2CO[C@H]3OCC[C@H]32)[C@H](O)CN(CC(C)C)S(=O)(=O)c2ccc(OC)cc2)cc1)OCC | D437N L441P | MT-2 | p24 / ELISA | IIIB | 1.7
Cn1c2ccccc2c2c1cc(C#N)c(=O)n2-c1ccc([N+](=O)[O-])cc1 | RT-M41L K70R T215F K219E | HeLa | luciferase | NRTI resistant | 1.4
CC(C)=CCN1c2cc(Cl)cc3[nH]c(=S)n(c23)C[C@@H]1C | RT-L74V K101E | MT-4 | - | - | 4
O=S(=O)(c1ccccc1)c1ccccc1 | RT-T139I | CEM + CEM-SS | XTT | Calanolide A-resistant (RT T139I) | 4.32
Cc1ccnc2c1NC(=O)c1cccnc1N2C1CC1 | RT-T139K Y181C Y188D/Y | CEM | cytopathic effect | Q-1 (RT T139K Y181C Y188D/Y) | ≥625
CC(C)(C)NC(=O)[C@@H]1C[C@@H]2CCCC[C@@H]2CN1C[C@@H](O)[C@H](Cc1ccccc1)NC(=O)[C@H](CC(N)=O)NC(=O)c1ccc2ccccc2n1 | PR-L10R M46I | MT-4 | p24 | NL4-3 | 1
Cc1cn([C@H]2C[C@H](N=[N+]=[N-])[C@@H](CO)O2)c(=O)[nH]c1=O | ATV-P36 atazanavir-resistant mutant | MT-2 | ATP | IIIB | 1.2
C[C@H](Cn1cnc2c(N)ncnc21)OCP(=O)(O)O | RT-K103N Y181C | MT-2 | p24 | A17 | 0.235
Cc1cc(S(N)(=O)=O)ccc1NC(=O)COc1ccc(Cl)cc1C(=O)c1cc(Cl)cc(C#N)c1 | RT-L100I | MAGI | β-galactosidase | NNRTI-resistant (RT L100I) | 0.96
Cc1cn([C@H]2C[C@H](N=[N+]=[N-])[C@@H](CO)O2)c(=O)[nH]c1=O | RT-Y181C | CEM | cytopathic effect | J-2 (RT-Y181C) | 7
Cc1cn([C@H]2C[C@H](N=[N+]=[N-])[C@@H](CO)O2)c(=O)[nH]c1=O | RT-M41L E44D D67N T69D V118I L210W T215Y | HeLa | luciferase | NRTI resistant | 389.1
Cc1cn([C@H]2C[C@H](N=[N+]=[N-])[C@@H](CO)O2)c(=O)[nH]c1=O | RT-K103N | CEM + CEM-SS | XTT | NL4-3 | 4
Cc1cn([C@H]2C[C@H](N=[N+]=[N-])[C@@H](CO)O2)c(=O)[nH]c1=O | RT-L74V | CEM + CEM-SS | cytopathic effect / XTT | NL4-3 | 5
O=c1[nH]cnc2c1ncn2[C@H]1CC[C@@H](CO)O1 | RT-L74V Y181C | HT4 + HT4 LacZ-1 | plaque count | HXB2 | 6.36
Cc1occc1C(=S)Nc1ccc(Cl)c(/C=N/OC(C)(C)C)c1 | RT-Y181C | CEM + CEM-SS | cytopathic effect / XTT | UC38-RS (RT-Y181C) | 6.5
Cc1ccc(S(=O)(=O)N(CC(C)C)C[C@@H](O)[C@H](Cc2ccccc2)NC(=O)O[C@H]2CO[C@H]3OCC[C@H]32)cc1 | 8374-P62 GS-8374-resistant | MT-2 | ATP | IIIB | 3.6
Cc1cn([C@H]2C[C@H](N=[N+]=[N-])[C@@H](CO)O2)c(=O)[nH]c1=O | RT-Y181C | CEM + CEM-SS | cytopathic effect / XTT | UC040-R (RT-Y181C) | 0.8
C[C@H](Cn1cnc2c(N)ncnc21)OCP(=O)(O)O | RT-M41L A62V S68N G112S M184V | HeLa | luciferase | Recombinant | 0.5
Nc1nc2c(ncn2[C@H]2CO[C@@H](CO)O2)c(=O)[nH]1 | RT-M41L D67N T69D M184V L210W T215Y K219R/K | - | - | RT M41L 67N 69D 184V 210W 215Y 219R/K | 1.1

The last 2 rows once more:

| compound | mutations | cell line | read by | strain or isolate | result |
|---|---|---|---|---|---|
| C[C@H](Cn1cnc2c(N)ncnc21)OCP(=O)(O)O | RT-M41L A62V S68N G112S M184V | HeLa | luciferase | Recombinant | 0.5 |
| Nc1nc2c(ncn2[C@H]2CO[C@@H](CO)O2)c(=O)[nH]1 | RT-M41L D67N T69D M184V L210W T215Y K219R/K | - | - | RT M41L 67N 69D 184V 210W 215Y 219R/K | 1.1 |